Anti-infective test results gathered from many reports (values: NIAID ChemDB through PubChem).

Shared fields: tests in culture; species: Herpes simplex virus 1; measure: inhibition

Blank or dashed fields: not listed here. "inactive" is the filed call at that dose; no cut-off is given. Inhibition is in % at the dose shown (toxicity tests: loss of growth or viability). Conditions beyond the fields shown may differ between rows.

SMILES,tested at,method,strain,cells,value
COc1cccc2c1C(=O)c1c(O)c3c(c(O)c1C2=O)C[C@@](O)(C(C)=O)C[C@@H]3O[C@H]1C[C@H](N(C)C)[C@H](O)[C@H](C)O1,0.5 µM,virus yield,,VERO,0%
O=c1[nH]c(=O)n([C@H]2C[C@H](O)[C@@H](CCl)O2)cc1CCCl,100 µg/mL,cytopathic effect,,HEP-2,≥25%
Nc1nc2c(ncn2COCCO)c(=O)[nH]1,0.6 µg/mL,virus yield,7401H,VERO,99.7%
Nc1nc2c(ncn2COC(CO)CO)c(=O)[nH]1,1 µM,plaque count,KOS mutant PFA-R2,WI-38,90%
CCCCCc1nc2n(n1)C(c1ccc(OC)cc1)CC(=O)N2,50 µg/mL,plaque count,7401H,VERO,6%
NC(=Nc1ccc(Cc2ccc(N=C(N)c3ccccc3)cc2)cc1)c1ccccc1,5 µM,plaque count,,VERO,<50%
CCCCCCCC/C=C\CCCCCCCC(=O)OCC(CO[C@@H]1O[C@H](CO)[C@@H](O)[C@H](O)[C@H]1O)OC(=O)CCCCCCC/C=C\CCCCCCCC,50 µg/mL,plaque count,KOS,VERO,inactive
Cc1ccccc1Cn1cnc(=N)c2[nH]cnc21,50 µg/mL,plaque count,,BSC-1,30%
CCCCCCCCCC(=O)OCC(CO[C@@H]1O[C@H](CO)[C@@H](O)[C@H](O)[C@H]1O)OC(=O)CCCCCCCCC,50 µg/mL,plaque count,KOS,VERO,inactive
Nc1[nH]c(=S)nc2c1C(c1ccc([N+](=O)[O-])cc1)c1c([nH]c(=S)[nH]c1=O)O2,10 µg/mL,,,VERO,70%
O=[N+]([O-])c1cccc2nc3c(cnc4c3cnn4-c3ccccc3)c(Cl)c12,50 µM,virus yield,,,80%
CN1C(=O)NC(=O)N([C@H]2C[C@H](O)[C@@H](CO)O2)C1(C)C,25 µM,plaque count,42D,BHK-21,95%
Nc1[nH]c(=S)nc2c1C(c1ccc(Cl)cc1)c1c([nH]c(=S)[nH]c1=O)N2,50 µg/mL,,,VERO,50%
CCCc1cn([C@H]2C[C@H](O)[C@@H](CO)O2)c(=O)[nH]c1=O,10 µM,plaque count,KOS,HELA BU,93%
COc1cccc(NS(=O)(=O)c2ccc(Oc3ccc(S(=O)(=O)Nc4cccc(OC)c4)cc3)cc2)c1,5 µM,plaque count,,VERO,<50%
Cc1cccc(Cn2cnc(=N)c3[nH]cnc32)c1,25 µg/mL,plaque count,,BSC-1,0%
Fc1ccc2nc3c(cnc4c3cnn4-c3ccccc3)c(Cl)c2c1,50 µM,virus yield,,,65%
N=c1ncn(CC2CCCCC2)c2nc[nH]c12,50 µg/mL,plaque count,,BSC-1,0%
Nc1ncnc2nc(-c3cscn3)[nH]c12,100 µg/mL,plaque count,,VERO,0%
CSc1cnc(=O)n([C@H]2C[C@H](O)[C@@H](CO)O2)c1,400 µM,plaque count,KOS,HeLa,98%
C[C@H]1/C=C/[C@@]2(C)CC[C@@H](C(C)(C)O)[C@@H]2[C@@H](O)C[C@](C)(O)/C=C/C1,15 µM,cytopathic effect,,VERO,81%
Cc1cn([C@H]2C[C@H](O)[C@@H](CO)O2)c(=O)[nH]c1=O,25 µM,plaque count,KOS,HeLa,0%
O=[N+]([O-])c1ccc2nc3c(cnc4c3cnn4-c3ccccc3)c(Cl)c2c1,50 µM,virus yield,,,87%
COC(=O)/C=C/c1cn([C@H]2C[C@H](O)[C@@H](CO)O2)c(=O)[nH]c1=O,0.3 µg/mL,cytopathic effect,,HEP-2,≥25%
Nc1ccn([C@H]2O[C@@H](CO)[C@H](O)[C@H]2F)c(=O)n1,1 µM,virus yield,F,VERO,67%
C#C[C@H]1O[C@@H](n2cc(C)c(=O)[nH]c2=O)C[C@@H]1O,100 µM,plaque count,KOS,HELA BU,1%
O=C(Nc1ccc(Oc2ccc(NC(=O)c3ccco3)cc2)cc1)c1ccco1,5 µM,plaque count,,VERO,<50%
CCCc1nc2n(n1)C(c1ccccc1)CC(=O)N2,50 µg/mL,plaque count,7401H,VERO,6%
N=c1ncn(Cc2ccc(Cl)cc2Cl)c2nc[nH]c12,12 µg/mL,plaque count,,BSC-1,0%
CCCCCCCCCCCC(=O)OCC(CO[C@@H]1O[C@H](CO)[C@@H](O)[C@H](O)[C@H]1O)OC(=O)CCCCCCCCCCC,50 µg/mL,plaque count,KOS,VERO,80%
Nc1nc(=O)n([C@@H]2O[C@H](CO)[C@@H](O)[C@@H]2F)cc1I,0.01 µg/mL,cytopathic effect,,HEP-2,≥25%
Cc1nnc2nc3c(nn12)c1ccccc1n3C,60 µg/mL,plaque count,,BSC-1,99%
CC(=O)N[C@@H](CC(C)C)C(=O)N[C@@H](CC(C)C)C(=O)N[C@H](C=O)CCCN=C(N)N,20 µM,plaque count,Fukuda,CV-1,38%
C=CCc1cn([C@H]2C[C@H](O)[C@@H](CO)O2)c(=O)[nH]c1=O,25 µM,plaque count,KOS,HeLa,>99%
CCC(=O)C(CCCCCCOc1ccc(OC)cc1Cl)C(=O)CC,4 µg/mL,plaque count,KOS,VERO,64%
Cc1ccc2c(c1)C(=O)C(=O)N2[C@@H]1O[C@H](COCc2ccccc2)[C@@H](OCc2ccccc2)[C@H]1OCc1ccccc1,50 µM,virus yield,,VERO,46%
Nc1ncnc2c1ncn2[C@@H]1O[C@H](CO)[C@@H](O)[C@@H]1O,1 µg/mL,virus yield,F,HL,71%
O=C1C(=O)N([C@@H]2O[C@H](COCc3ccccc3)[C@@H](OCc3ccccc3)[C@H]2OCc2ccccc2)c2ccc(I)cc21,50 µM,virus yield,,VERO,37%
Cc1cn([C@@H]2O[C@H](CO)[C@@H](O)[C@@H]2F)c(=O)[nH]c1=O,1 µM,virus yield,F,VERO,79%
O=C1Nc2ccccc2C1=O,50 µM,virus yield,,VERO,0%
C/C=C/c1cn([C@H]2C[C@H](O)[C@@H](CO)O2)c(=O)[nH]c1=O,10 µM,plaque count,KOS,HELA BU,>99%
Cc1cn([C@H]2C[C@H](O)[C@@H](CO)O2)c(=O)[nH]c1=O,10 µM,plaque count,C42,VERO,12%
Cc1cn([C@@H]2O[C@H](CO)[C@@H](O)[C@@H]2F)c(=O)[nH]c1=O,0.3 µg/mL,cytopathic effect,,HEP-2,≥25%
COc1ccc(NC(=O)Nc2ccc(Cl)cc2)cc1NC(=O)Nc1ccc(Cl)cc1,5 µM,plaque count,,VERO,<50%
O=C1CC(c2ccc([N+](=O)[O-])cc2)n2nc(-c3cccnc3)nc2N1,50 µg/mL,plaque count,7401H,VERO,16%
CSC(=Nc1ccc(Oc2ccc(/C=C(/Nc3ccccc3)SC)cc2)cc1)Nc1ccccc1,30 µM,plaque count,,VERO,<50%
CCCCn1cnc(=N)c2[nH]cnc21,50 µg/mL,plaque count,,BSC-1,0%
C/C=C/c1cn([C@H]2C[C@H](O)[C@@H](CO)O2)c(=O)[nH]c1=O,1 µM,plaque count,F-2,VERO,39%
O=S(=O)(c1ccc(OCc2ccncc2)cc1)c1ccc(OCc2ccncc2)cc1,5 µM,plaque count,,VERO,<50%
O=C1CC(c2ccccc2)n2nc(-c3ccncc3)nc2N1,50 µg/mL,plaque count,7401H,VERO,17%
CCCCCCCCCCCCCCCCCCCCCC(=O)OCC(CO[C@@H]1O[C@H](CO)[C@@H](O)[C@H](O)[C@H]1O)OC(=O)CCCCCCCCCCCCCCCCCCCCC,50 µg/mL,plaque count,KOS,VERO,inactive
COc1ccc(C2CC(=O)Nc3nc(-c4ccncc4)nn32)cc1,50 µg/mL,plaque count,7401H,VERO,15%
O=[N+]([O-])c1ccc(C2c3c(nc(=S)[nH]c3Cl)Oc3nc(=S)[nH]c(Cl)c32)cc1,10 µg/mL,,,VERO,70%
O=C1Nc2cc(Br)cc(Br)c2C1=O,50 µM,virus yield,,VERO,46%
O=c1[nH]c(=O)n([C@H]2C[C@H](O)[C@@H](CI)O2)cc1CCI,30 µg/mL,cytopathic effect,,HEP-2,≥25%
Nc1nc(=O)n([C@@H]2O[C@H](CO)[C@@H](O)[C@@H]2F)cc1I,0.5 µM,virus yield,F,VERO,99.08%
COc1ccc(NC(=O)Nc2ccc(C)cc2)cc1NC(=O)Nc1ccc(C)cc1,5 µM,plaque count,,VERO,<50%
O=c1ccn([C@@H]2O[C@H](CO)[C@@H](O)[C@@H]2F)c(=O)[nH]1,5 µM,virus yield,F,VERO,97.2%
CCCCCc1nc2n(n1)C(c1ccc([N+](=O)[O-])cc1)CC(=O)N2,50 µg/mL,plaque count,7401H,VERO,36%
Cc1ccc2c(Cl)c3cnc4c(cnn4-c4ccccc4)c3nc2n1,50 µM,virus yield,,,11%
O=c1[nH]cnc2c1nnn2[C@H]1c2ccccc2C[C@@H]1O,100 µM,plaque count,F,VERO,0%
O=c1[nH]c(=O)n([C@@H]2C[C@H](O)[C@@H](CO)O2)cc1CCCl,3 µg/mL,cytopathic effect,,HEP-2,≥25%
CC(C)C[C@H](NC(=O)[C@@H]1O[C@H]1C(=O)O)C(=O)NCCCCN=C(N)N,40 µM,plaque count,Fukuda,CV-1,22%
O=c1[nH]c(=O)n([C@@H]2O[C@H](CO)[C@@H](O)[C@@H]2F)cc1I,0.01 µg/mL,cytopathic effect,,HEP-2,≥25%

A second listing of 4 rows from above:

SMILES	tested at	method	strain	cells	value
C/C=C/c1cn([C@H]2C[C@H](O)[C@@H](CO)O2)c(=O)[nH]c1=O	1 µM	plaque count	F-2	VERO	39%
C/C=C/c1cn([C@H]2C[C@H](O)[C@@H](CO)O2)c(=O)[nH]c1=O	10 µM	plaque count	KOS	HELA BU	>99%
O=C(Nc1ccc(Oc2ccc(NC(=O)c3ccco3)cc2)cc1)c1ccco1	5 µM	plaque count		VERO	<50%
CCCCCCCCCCCC(=O)OCC(CO[C@@H]1O[C@H](CO)[C@@H](O)[C@H](O)[C@H]1O)OC(=O)CCCCCCCCCCC	50 µg/mL	plaque count	KOS	VERO	80%